Results of unrelated studies side by side (data: NIAID ChemDB).

Common to all: tests in culture; species: HIV-1; method: p24; measure: fold resistance

Neighbouring rows are from separate reports.

SMILES | cell line | changes | strain | value
COc1ccc2c(c1)N(C(=O)OC(C)C)[C@@H](CSC)C(=S)N2 | CEM | RT-G190E | IIIB | >10000
CC(C)(C)NC(=O)[C@@H]1C[C@@H]2CCCC[C@@H]2CN1C[C@@H](O)[C@H](Cc1ccccc1)NC(=O)[C@H](CC(N)=O)NC(=O)c1ccc2ccccc2n1 | MT-4 | PR-L10R M46I L63P | NL4-3 | 1
Cc1cn([C@H]2C[C@H](N=[N+]=[N-])[C@@H](CO)O2)c(=O)[nH]c1=O | MT-4 | RT-M184V | HXB2-D184 (RT-M184V) | 1.2
Cc1occc1C(=S)Nc1ccc(Cl)c(/C=N/OC(C)(C)C)c1 | CEM | RT-M184I | IIIB | 0.18
O=c1[nH]cnc2c1ncn2[C@H]1CC[C@@H](CO)O1 | PBMC | RT-F116Y | Recombinant | 0.15
COc1ccc(S(=O)(=O)N(CC(C)C)C[C@@H](O)[C@H](Cc2ccccc2)NC(=O)O[C@H]2CO[C@H]3OCC[C@H]32)cc1 | PBMC | PR-L10I K43T M46L I54L L63P A71T V82A L90M Q92K | Clinical isolate | 3
Nc1ccn([C@H]2CC[C@@H](CO)O2)c(=O)n1 | PBMC | RT-V75I F77L F116Y Q151M | Recombinant | 0.11
Nc1ncnc2c1ncn2[C@@H]1O[C@H](CO)C[C@@H]1F | MT-2 | RT-L74V | L74V(RT-L74V) | 2.6
Cc1cn([C@H]2C[C@H](N=[N+]=[N-])[C@@H](CO)O2)c(=O)[nH]c1=O | MT-2 | RT-D67N K70R T215Y K219Q | LAI | 47.7
CCc1cc(NCc2nc3c(Cl)ccc(Cl)c3o2)c(=O)[nH]c1C | MT-4 | RT-V179D | NL4-3 | 4
O=c1[nH]cnc2c1ncn2[C@H]1CC[C@@H](CO)O1 | MT-2 | RT-I178L T215Y | NL4-3 | 2.125
CC(C)=CCN1Cc2cc(Cl)cc3[nH]c(=S)n(c23)C[C@@H]1C | CEM | RT-K103N | IIIB | ≥250
O=c1[nH]cnc2c1ncn2[C@H]1CC[C@@H](CO)O1 | MT-2 | RT-T69G |  | 8.6
CC(C)CN(C[C@@H](O)[C@H](Cc1ccccc1)NC(=O)O[C@H]1CCOC1)S(=O)(=O)c1ccc(N)cc1 | MT-4 | PR-D30N A71V | NL4-3 | 0.25
Cc1cn([C@H]2C[C@H](N=[N+]=[N-])[C@@H](CO)O2)c(=O)[nH]c1=O | MT-2 | RT-P119S | P119S(RT-P119S) | 0.9
Cc1ccnc2c1NC(=O)c1cccnc1N2C1CC1 | H9 | RT-G190E | A1(RT-G190E) | >111
Nc1nc2c(ncn2[C@H]2CO[C@@H](CO)O2)c(=O)[nH]1 | MT-2 | RT-D67N K70R T215Y K219Q L74V | LAI | 3.7
CC(C)OC(=O)OCOP(=O)(CO[C@H](C)Cn1cnc2c(N)ncnc21)OCOC(=O)OC(C)C | MT-2 | RT-P119S V179D L214F | P18 FDDA-resistant RT P119S V179D L214F | 0.332
Nc1ccn([C@@H]2CO[C@H](CO)S2)c(=O)n1 | C8166 | RT-M184I | RF | 5.09
O=c1[nH]cnc2c1ncn2[C@H]1CC[C@@H](CO)O1 | MT-4 | RT-M184V | HXB2D (RT-M184V) | 5.37
C=C(C)OC(=O)N1c2cc(Cl)ccc2NC(=S)C1(C)C | H9 | RT-L100I V106A G190A | B9 (RT L100I V106A G190A) | >1670
O=c1[nH]cnc2c1ncn2[C@H]1CC[C@@H](CO)O1 | MT-2 | RT-F77L F116Y Q151M | RT F77L/F116Y/Q151M | 7.3
O=c1[nH]cnc2c1ncn2[C@H]1CC[C@@H](CO)O1 | MT-4 | RT-K65R L74V M184V Y115F | XM-ABC-resistant | 7.5
Nc1nc(NC2CC2)c2ncn([C@H]3C=C[C@@H](CO)C3)c2n1 | MT-2 | 1 (Δ.67+T69G+K103N) | RT Δ.67 T69G K103N | 9.9
CC(C)(C)NC(=O)[C@@H]1C[C@@H]2CCCC[C@@H]2CN1C[C@@H](O)[C@H](Cc1ccccc1)NC(=O)[C@H](CC(N)=O)NC(=O)c1ccc2ccccc2n1 | PBMC | PR-L10I K43T M46L I54L L63P A71T V82A L90M Q92K | Clinical isolate | 31
Cc1cn([C@@H]2O[C@H](CO[Si](C)(C)C(C)(C)C)C3(OS(=O)(=O)C=C3N)[C@H]2O[Si](C)(C)C(C)(C)C)c(=O)n(C)c1=O | CEM | RT-L100I | IIIB | 1.75
Cc1c(O)cccc1C(=O)N[C@@H](CSc1ccccc1)[C@H](O)CN1C[C@H]2CCCC[C@H]2C[C@H]1C(=O)NC(C)(C)C | PBMC | PR-L10I K14R R41K M46L I54V L63P A71V V82A L90M I93L | Clinical isolate | >43.5
Cc1cn([C@H]2C=C[C@@H](CO)O2)c(=O)[nH]c1=O | MT-2 | RT-K65R | LAI | 3
CC(C)CN(C[C@@H](O)[C@H](Cc1ccccc1)NC(=O)O[C@H]1CCOC1)S(=O)(=O)c1ccc(N)cc1 | PBMC | PR-L10I I15V E35D N37E K45R I54V L63P A71V V82T L90M I93L C95F | Clinical isolate | 10.4
CC(C)CN(C[C@@H](O)[C@H](Cc1ccccc1)NC(=O)[C@H](CC(N)=O)NC(=O)c1ccc2ccccc2n1)C(=O)NC(C)(C)C | MT-4 | PR-M46I L63P V82T | NL4-3 | 2
Cc1cn([C@H]2C[C@H](N=[N+]=[N-])[C@@H](CO)O2)c(=O)[nH]c1=O | MT-4 | RT-M41L D67N K70R T215Y K219Q | XM-AZT-resistant | 1150

For reference, 3 entries again:

SMILES,cell line,changes,strain,value
CCc1cc(NCc2nc3c(Cl)ccc(Cl)c3o2)c(=O)[nH]c1C,MT-4,RT-V179D,NL4-3,4
Cc1cn([C@H]2C[C@H](N=[N+]=[N-])[C@@H](CO)O2)c(=O)[nH]c1=O,MT-4,RT-M184V,HXB2-D184 (RT-M184V),1.2
COc1ccc2c(c1)N(C(=O)OC(C)C)[C@@H](CSC)C(=S)N2,CEM,RT-G190E,IIIB,>10000

An empty or dashed field is not shown. Fold resistance has wild type as its base.